Anti-infective test results gathered from many reports (values: NIAID ChemDB through PubChem).

All rows: tests in culture; agent: Cryptococcus neoformans

MIC50, MIC90 and the like: level of inhibition, or share of isolates inhibited. Lines come from different laboratories, so protocols vary. Two numbers with a dash give a range or band. ECn: concentration that inhibits the pathogen or its effect by n%.

{"compound": "CCC(C)CC(C)CCCCCCCCC(=O)NC1C[C@H](O)[C@@H](O)NC(=O)[C@@H]2[C@@H](O)[C@@H](C)CN2C(=O)[C@H]([C@H](O)CC(N)=O)NC(=O)[C@H](C(O)[C@H](O)c2ccc(O)cc2)NC(=O)[C@@H]2C[C@@H](O)CN2C(=O)[C@H]([C@@H](C)O)NC1=O", "strain": "MY1146", "endpoint": "MIC", "value": ">128 µg/mL"}
{"compound": "CNCCN(C)CCc1ccc(-c2csc(-c3ccc(Cl)cc3)n2)cc1", "endpoint": "MIC50", "value": "2 µg/mL"}
{"compound": "OC(Cn1cncn1)(Cn1nnc(CCN2CCN(c3ccccc3)CC2)n1)c1ccc(F)cc1F", "strain": "LA314", "endpoint": "MIC", "value": ">16 µg/mL"}
{"compound": "CCOC(=O)c1cc(C)nc2sc3c(Cl)nnnc3c12", "endpoint": "MIC", "value": ">100 µg/mL"}
{"compound": "CCC(C)CCCCCCCCC1CC(=O)NCC(=O)N[C@@H](CCCN)C(=O)N[C@@H](C(C)C)C(=O)N1", "strain": "TIMM0354", "endpoint": "MIC", "value": "0.63 µg/mL"}
{"compound": "CO[C@@H]1[C@H]2OC(C)(C)O[C@H]2O[C@@H]1C1=NOC(OC(C)=O)C1", "endpoint": "MIC", "value": "25 µg/mL"}
{"compound": "CC[C@@H]([C@H](C)O)n1ncn(-c2ccc(N3CCN(c4ccc(OC[C@@H]5CO[C@@](Cn6cncn6)(c6ccc(F)cc6F)C5)cc4)CC3)cc2)c1=O", "strain": "Isolate 486", "endpoint": "MIC", "value": "0.25 µg/mL"}
{"compound": "CCSc1ssc(=S)c1C", "strain": "ATCC 32264", "endpoint": "MIC", "value": "100 µg/mL"}
{"compound": "CN(CCc1ccc(-c2csc(-c3ccc(Cl)cc3)n2)cc1)CC(C)(C)N", "endpoint": "MIC50", "value": "4 µg/mL"}
{"compound": "CCC(C)CC(C)CCCCCCCCC(=O)N[C@H]1C[C@@H](O)[C@H](NCCN)NC(=O)[C@@H]2[C@@H](O)CCN2C(=O)[C@H]([C@H](O)CCN)NC(=O)[C@H]([C@H](O)[C@@H](O)c2ccc(O)cc2)NC(=O)[C@@H]2C[C@@H](O)CN2C(=O)[C@H]([C@@H](C)O)NC1=O", "strain": "887.002", "endpoint": "MIC", "value": ">2 µg/mL"}
{"compound": "CC(C)(N)CSCc1ccc(-c2csc(-c3ccc(Cl)cc3)n2)cc1", "endpoint": "MIC50", "value": "4 µg/mL"}
{"compound": "CCCCCOc1ccc(-c2ccc(-c3ccc(C(=O)N[C@H]4C[C@@H](O)[C@@H](O)NC(=O)[C@@H]5[C@@H](O)[C@@H](C)CN5C(=O)[C@H]([C@H](C)O)NC(=O)[C@H]([C@H](O)[C@@H](O)c5ccc(O)cc5)NC(=O)[C@@H]5C[C@@H](O)CN5C(=O)[C@H]([C@H](C)O)NC4=O)cc3)cc2)cc1", "strain": "15 strains", "endpoint": "MIC90", "value": ">8 µg/mL"}
{"compound": "Cc1cc(C)c2c(n1)sc1c(Cl)nnnc12", "endpoint": "MIC", "value": "100 µg/mL"}
{"compound": "CCCCCCCCCCCCCC#CC1=N[C@H]1C(=O)OC", "strain": "var. grubii", "endpoint": "MIC", "value": "4 µg/mL"}
{"compound": "CO[C@@H]1[C@H]2OC(C)(C)O[C@H]2O[C@@H]1C1=NOC(C)C1C(=O)O", "endpoint": "MIC", "value": "12.5 µg/mL"}
{"compound": "CC(C)CCCCCCCCC1CC(=O)NCC(=O)N[C@@H](CCCN)C(=O)N[C@@H](C(C)C)C(=O)N1", "strain": "TIMM0354", "endpoint": "MIC", "value": "0.63 µg/mL"}
{"compound": "CCCCCCCCCCCCC/C=C/C1=N[C@H]1C(=O)OC", "strain": "var. gatti", "endpoint": "MIC", "value": "8 µg/mL"}
{"compound": "C[C@@H]1[C@H](O)[C@@H](C)/C=C/C=C/C=C/C=C/C=C/C=C/C=C/[C@H](O[C@@H]2O[C@H](C)[C@@H](O)[C@H](N)[C@@H]2O)C[C@@H]2O[C@](O)(C[C@@H](O)C[C@@H](O)[C@H](O)CC[C@@H](O)C[C@@H](O)CC(=O)O[C@H]1C)C[C@H](O)[C@H]2C(=O)O", "strain": "JEC21", "endpoint": "EC50", "method": "broth dilution", "value": ">10 µg/mL"}
{"compound": "CCCCCCCCCCCCSc1cc(=S)ss1", "strain": "ATCC 32264", "endpoint": "MIC", "value": "250 µg/mL"}
{"compound": "C[C@H](n1nnc(CCN2CCN(c3cccc(Cl)c3)CC2)n1)[C@](O)(Cn1cncn1)c1ccc(F)cc1F", "strain": "LA314", "endpoint": "MIC", "value": ">16 µg/mL"}
{"compound": "CN[C@H]1CC[C@@H](c2ccc(Cl)c(Cl)c2)c2ccccc21", "strain": "C45", "endpoint": "MIC90", "method": "broth dilution", "value": "2 µg/mL"}
{"compound": "CCCCCCCCCCCCC/C=C\\C1=NC1C(=O)OC", "strain": "var. grubii", "endpoint": "MIC", "value": "1–2 µg/mL"}
{"compound": "CCCCCCCCCCCCCCCCCC(=O)NC1CC(O)C(O)NC(=O)C2C(O)C(C)CN2C(=O)C(C(C)O)NC(=O)C(C(O)C(O)c2ccc(O)cc2)NC(=O)C2CC(O)CN2C(=O)C(C(C)O)NC1=O", "strain": "MY1146", "endpoint": "MIC", "value": ">128 µg/mL"}
{"compound": "CCSSc1ssc(=S)c1OC", "strain": "ATCC 32264", "endpoint": "MIC", "value": "12.5 µg/mL"}
{"compound": "CC(=O)C1CC([C@H]2O[C@@H]3OC(C)(C)O[C@@H]3[C@H]2OCc2ccccc2)=NO1", "endpoint": "MIC", "value": "12.5 µg/mL"}
{"compound": "CCSc1ssc(=S)c1Cl", "strain": "ATCC 32264", "endpoint": "MIC", "value": "62.5 µg/mL"}
{"compound": "CCCCCCCCCCCCC/C=C\\C1=N[C@H]1C(=O)OC", "strain": "var. grubii", "endpoint": "MIC", "value": "2 µg/mL"}
{"compound": "OC(Cn1cncn1)(Cn1cncn1)c1ccc(F)cc1F", "strain": "Var. gattii (isolate 54713)", "endpoint": "EC50", "method": "colony count", "value": "<1 µg/mL"}
{"compound": "CCCCCCCCCCCCCC(O)CC(O)C(N)CC(=O)CC(C)C(N)C(=O)NC(C=O)CO", "endpoint": "MIC", "value": "3.12 µg/mL"}
{"compound": "CCCCCCSc1cc(=S)ss1", "strain": "ATCC 32264", "endpoint": "MIC", "value": "62.5 µg/mL"}
{"compound": "CCC(C)n1ncn(-c2ccc(N3CCN(c4ccc(OC[C@H]5CO[C@](Cn6cncn6)(c6ccc(Cl)cc6Cl)O5)cc4)CC3)cc2)c1=O", "strain": "37 strains", "endpoint": "MIC90", "value": "0.25 µg/mL"}
{"compound": "CNC(=S)N/N=C(\\N)c1ccccn1", "strain": "ATCC 24067D2", "endpoint": "MIC100", "value": "104 µM"}
{"compound": "CCCCOc1ccccc1N1CCN(CCc2nnnn2CC(O)(Cn2cncn2)c2ccc(F)cc2F)CC1", "strain": "LA314", "endpoint": "MIC", "value": ">16 µg/mL"}
{"compound": "COc1ccc(CC2CC([C@H]3O[C@@H]4OC(C)(C)O[C@@H]4[C@H]3OC)=NO2)cc1", "endpoint": "MIC", "value": "25 µg/mL"}
{"compound": "CCCCSc1cc(=S)ss1", "strain": "ATCC 32264", "endpoint": "MIC", "value": "50 µg/mL"}

Repeating the final 3 entries:

{"compound": "CCCCOc1ccccc1N1CCN(CCc2nnnn2CC(O)(Cn2cncn2)c2ccc(F)cc2F)CC1", "strain": "LA314", "endpoint": "MIC", "value": ">16 µg/mL"}
{"compound": "COc1ccc(CC2CC([C@H]3O[C@@H]4OC(C)(C)O[C@@H]4[C@H]3OC)=NO2)cc1", "endpoint": "MIC", "value": "25 µg/mL"}
{"compound": "CCCCSc1cc(=S)ss1", "strain": "ATCC 32264", "endpoint": "MIC", "value": "50 µg/mL"}